Results of unrelated studies side by side (data: NIAID ChemDB).

All rows: enzyme or target tests

ICn is the concentration giving n% inhibition.

SMILES	agent	strain	mutations	target	read by	endpoint	result
Cc1cn([C@H]2CC[C@@H](COP(=O)(O)OP(=O)(O)OP(=O)(O)O)O2)c(=O)[nH]c1=O	HIV		RT-D67N K70R T215Y K219Q	Reverse transcriptase	nucleotide incorporation / radiometric	fold resistance	1.67
CN1CCn2c(nc(C(=O)NCc3ccc(F)cc3)c(O)c2=O)C1COCc1ccccc1	HIV-1			Integrase	ELISA	IC50	<10 µM
CC(C)(O)[C@H]1CC=C(COC2O[C@@H](CO[C@H]3OC[C@H](O)[C@@H](O)[C@@H]3O)[C@H](O)[C@@H](O)[C@@H]2O)CC1	HIV-2			RNase H	FRET	IC50	>20 µM
CC(C)(C)c1ccc(-n2nnnc2SCC(=O)Nc2ccc(S(=O)(=O)NCc3ccccc3)cc2Cl)c(Cl)c1	HIV-1	WT		Reverse transcriptase	PicoGreen / fluorescence	IC50	<1 µM
CN1CCn2c(nc(C(=O)NCc3ccc(F)cc3)c(O)c2=O)C1CN(C)S(=O)(=O)N(C)C	HIV-1			Integrase	ELISA	IC50	<10 µM
O=C(/C=C/c1cccn1Cc1ccc(F)cc1)CC(=O)C(=O)O	HIV-1		R448A	RNase H	substrate cleavage / fluorescence	IC50	19.3 µM
Nc1nc2c(ncn2[C@H]2CC[C@@H](COP(=O)(O)OP(=O)(O)OP(=O)(O)OP(=O)(O)OC[C@@H]3CC[C@H](n4cnc5c(=O)[nH]c(N)nc54)O3)O2)c(=O)[nH]1	HIV		RT-W88G	Reverse transcriptase	nucleotide incorporation / radiometric	fold resistance	3.3
Nc1ccn([C@H]2CC[C@@H](COP(=O)(O)OP(=O)(O)OP(=O)(O)O)O2)c(=O)n1	HIV		RT-T215Y	Reverse transcriptase		fold resistance	3.33
CC(=O)N(CC(C)C)C1CN(C)CCn2c1nc(C(=O)NCc1ccc(F)cc1)c(O)c2=O	HIV-1			Integrase	ELISA	IC50	<10 µM
COc1cc(/C=C/CO)cc(OC)c1O[C@@H]1O[C@H](CO)[C@@H](O)[C@H](O)[C@H]1O	HIV-2			RNase H	FRET	IC50	>20 µM
Cc1ccc(-n2nnnc2SCC(=O)Nc2ccc(-c3ccc(CCO)cc3)cc2Cl)c(Cl)c1	HIV-1		RT-K103 Y181C	Reverse transcriptase	PicoGreen / fluorescence	IC50	<1 µM
O=C(OC[C@H]1O[C@@H](OCCc2ccc(O)cc2)[C@H](O)[C@@H](O)[C@@H]1O)c1cc(O)c(O)c(O)c1	HIV-2			RNase H	FRET	IC50	3.5 µM
CC(C)(C)c1ccc(-n2nnnc2SCC(=O)Nc2ccc(S(=O)(=O)Nc3ccccc3)cc2Cl)c(Cl)c1	HIV-1		RT-K103 Y181C	Reverse transcriptase	PicoGreen / fluorescence	IC50	<1 µM
Nc1nc2c(ncn2[C@H]2CC[C@@H](COP(=O)(O)OP(=O)(O)OP(=O)(O)O)O2)c(=O)[nH]1	HIV		RT-K65R	Reverse transcriptase	nucleotide incorporation / radiometric	IC50	0.49 µM
COc1cccc(Cn2cccc2/C=C/C(=O)CC(=O)C(=O)O)c1	HIV-1		Q475A	RNase H	substrate cleavage / fluorescence	IC50	7.4 µM
Cc1ccc(-n2nnnc2SCC(=O)Nc2ccc(-c3ccc(CC(=O)NS(C)(=O)=O)cc3)cc2Cl)c(Cl)c1	HIV-1		RT-K103 Y181C	Reverse transcriptase	PicoGreen / fluorescence	IC50	<1 µM
CC1(C)c2nc(C(=O)NCc3ccc(F)cc3)c(O)c(=O)n2CCN1Cc1cnco1	HIV-1			Integrase	ELISA	IC50	<10 µM
Nc1nc2c(ncn2[C@H]2CC[C@@H](COP(=O)(O)OP(=O)(O)OP(=O)(O)OP(=O)(O)OC[C@H]3O[C@@H](n4cnc5c(N)ncnc54)[C@H](O)[C@@H]3O)O2)c(=O)[nH]1	HIV		RT-D67N K70R T215Y K219Q	Reverse transcriptase	nucleotide incorporation / radiometric	fold resistance	0.108
Cc1ccc(-n2nnnc2SCC(=O)Nc2ccc(-c3cocn3)cc2Cl)c(Cl)c1	HIV-1	WT		Reverse transcriptase	PicoGreen / fluorescence	IC50	<1 µM
CCN1c2ncc(CCOc3ccc(C(=O)O)c4ccccc34)cc2C(=O)Nc2c(C)ccnc21	HIV-1		RT-K103N Y181C	Reverse transcriptase	nucleotide incorporation / radiometric	fold resistance	1–10
Cc1ccc(Cn2cccc2/C=C/C(=O)CC(=O)C(=O)O)c(C)c1	HIV-1		R557A	RNase H	substrate cleavage / fluorescence	IC50	58 µM
O=C(O)Cc1ccc(-c2ccc(NC(=O)CSc3nnnn3-c3ccc(C4CC4)cc3Cl)c(Br)c2)cc1	HIV-1	WT		Reverse transcriptase	PicoGreen / fluorescence	IC50	<1 µM
CCN1c2ncc(CCOc3ccc(CCC(=O)O)c4c3CCCC4)cc2C(=O)N(C)c2cccnc21	HIV-1		RT-V106A	Reverse transcriptase	nucleotide incorporation / radiometric	IC50	>1 µM
Oc1cc(O)c2c(c1)O[C@H](c1cc(O)c(O)c(O)c1)[C@H](O)C2	HIV-2			RNase H	FRET	IC50	>20 µM
CN1CCn2c(nc(C(=O)NCc3ccc(F)cc3)c(O)c2=O)C(N(Cc2ccccc2)C(=O)C(=O)N(C)C)C1	HIV-1			Integrase	ELISA	IC50	<10 µM
CN(C)CCNC(=O)COC(C)(C)C#Cc1ccc(NC(=O)CSc2nnnn2-c2ccc(C(C)(C)C)cc2Cl)c(Cl)c1	HIV-1	WT		Reverse transcriptase	PicoGreen / fluorescence	IC50	<1 µM
CCN(CC)CCN1CCn2c(nc(C(=O)NCc3ccc(F)cc3)c(O)c2=O)C1(C)C	HIV-1			Integrase	ELISA	IC50	<10 µM
CC(C)(C#Cc1ccc(NC(=O)CSc2nnnn2-c2ccc(C3CC3)cc2Cl)c(Cl)c1)NC(=O)c1cnccn1	HIV-1	WT		Reverse transcriptase	PicoGreen / fluorescence	IC50	<1 µM
CC1(C)c2nc(C(=O)NCc3ccc(F)cc3)c(O)c(=O)n2CCN1CC(=O)O	HIV-1			Integrase	ELISA	IC50	<10 µM
Cc1cn([C@H]2CC[C@@H](COP(=O)(O)OP(=O)(O)OP(=O)(O)OP(=O)(O)OC[C@@H]3CC[C@H](n4cc(C)c(=O)[nH]c4=O)O3)O2)c(=O)[nH]c1=O	HIV		RT-W88G	Reverse transcriptase	nucleotide incorporation / radiometric	IC50	34 µM
CC(C)(C)c1ccc(-n2nnnc2SCC(=O)Nc2ccc(C(=O)NCCc3ccc(O)c(O)c3)cc2Cl)c(Cl)c1	HIV-1	WT		Reverse transcriptase	PicoGreen / fluorescence	IC50	<1 µM
COc1ccc(OC)c(C/C=C(\C)CC/C=C(\C)CC/C=C(\C)CC/C=C(\C)CC/C=C(\C)CCC=C(C)C)c1	HIV-2			Reverse transcriptase	nucleotide incorporation	IC50	12.8 µM
CCN1c2ncc(CCOc3ccc(CC(=O)O)c4ccccc34)cc2C(=O)Nc2c(C)cc(F)nc21	HIV-1		RT-K103N Y181C	Reverse transcriptase	nucleotide incorporation / radiometric	fold resistance	1–10
COC(=O)/C=C(/C)c1ccc(NC(=O)CSc2nnnn2-c2ccc(C3CC3)cc2Cl)c(Cl)c1	HIV-1		RT-K103 Y181C	Reverse transcriptase	PicoGreen / fluorescence	IC50	<1 µM
Cc1cnc(CN2CCn3c(nc(C(=O)NCc4ccc(F)cc4)c(O)c3=O)C2(C)C)o1	HIV-1			Integrase	ELISA	IC50	<10 µM
CCCC[C@@H](CN[C@@H](CCC(N)=O)C(=O)N[C@@H](CCCN=C(N)N)C(N)=O)NC(=O)[C@H](CCCC)NC(=O)C(NC(=O)C(NC(C)=O)[C@@H](C)O)[C@@H](C)CC	HIV		PR-N88D	Protease	HPLC	IC50	>2.17 µM
CC(C)(C#Cc1ccc(NC(=O)CSc2nnnn2-c2ccc(C(C)(C)C)cc2Cl)c(Cl)c1)OCC(=O)NCC(=O)O	HIV-1	WT		Reverse transcriptase	PicoGreen / fluorescence	IC50	<1 µM
CCN1c2ncc(CCOc3ccc(C(=O)O)c4c3CCN(C(=O)OC(C)(C)C)C4)cc2C(=O)N(C)c2cccnc21	HIV-1		RT-Y188L	Reverse transcriptase	nucleotide incorporation / radiometric	fold resistance	1–10
CC(C)(C)c1ccc(-n2nnnc2SCC(=O)Nc2ccc(NC(=O)CCc3ccccc3)cc2Cl)c(Cl)c1	HIV-1		RT-K103 Y181C	Reverse transcriptase	PicoGreen / fluorescence	IC50	<1 µM
CC(C)=CCN1Cc2cccc3[nH]c(=S)n(c23)C[C@@H]1C	HIV		RT-F61L	Reverse transcriptase	nucleotide incorporation	IC50	0.18 µM
Nc1ccn([C@@H]2CS[C@H](COP(=O)(O)OP(=O)(O)OP(=O)(O)O)O2)c(=O)n1	HIV		RT-M184V	Reverse transcriptase	radiometric	Ki	101 µM
CC(C)(N)C#Cc1ccc(NC(=O)CSc2nnnn2-c2ccc(C3CC3)cc2Cl)c(Cl)c1F	HIV-1		RT-K103 Y181C	Reverse transcriptase	PicoGreen / fluorescence	IC50	<1 µM
CCN1c2ncc(CCOc3ccc(CCC(=O)O)c4ccccc34)cc2C(=O)Nc2c(C)cc(F)nc21	HIV-1		RT-K103N Y181C	Reverse transcriptase	nucleotide incorporation / radiometric	fold resistance	1–10
CC(C)(C)c1ccc(-n2nnnc2SCC(=O)Nc2ccc(-c3ccc(/C=C/C(=O)O)s3)cc2Cl)c(Cl)c1	HIV-1	WT		Reverse transcriptase	PicoGreen / fluorescence	IC50	<1 µM
CCOC(=O)C(=O)CC(=O)/C=C/c1cc(-c2ccccc2)cn1Cc1ccc(F)cc1	HIV-1		R557A	RNase H	substrate cleavage / fluorescence	IC50	50 µM
CC(C)(C#Cc1ccc(NC(=O)CSc2nnnn2-c2cc(C(F)(F)F)ccc2Cl)c(Cl)c1)OCCN1CCCC1	HIV-1		RT-K103 Y181C	Reverse transcriptase	PicoGreen / fluorescence	IC50	<1 µM
CCN1c2ncc(CCOc3ccc(CCC(=O)O)c4ccccc34)cc2C(=O)Nc2c(C)cc(Cl)nc21	HIV-1		RT-V106A	Reverse transcriptase	nucleotide incorporation / radiometric	IC50	0.1–1 µM
CC(C)(C)c1ccc(-n2nnnc2SCC(=O)Nc2ccc(C(=O)NC3CC3)cc2Cl)c(Cl)c1	HIV-1		RT-K103 Y181C	Reverse transcriptase	PicoGreen / fluorescence	IC50	<1 µM
Nc1ncnc2c1ncn2[C@H]1CC[C@@H](COP(=O)(O)OP(=O)(O)OP(=O)(O)O)O1	HIV		RT-L74V T215Y	Reverse transcriptase		fold resistance	5

A second listing of 5 rows from above:

{"SMILES": "CC(C)(C)c1ccc(-n2nnnc2SCC(=O)Nc2ccc(-c3ccc(/C=C/C(=O)O)s3)cc2Cl)c(Cl)c1", "agent": "HIV-1", "strain": "WT", "target": "Reverse transcriptase", "read by": "PicoGreen / fluorescence", "endpoint": "IC50", "result": "<1 µM"}
{"SMILES": "Cc1ccc(-n2nnnc2SCC(=O)Nc2ccc(-c3cocn3)cc2Cl)c(Cl)c1", "agent": "HIV-1", "strain": "WT", "target": "Reverse transcriptase", "read by": "PicoGreen / fluorescence", "endpoint": "IC50", "result": "<1 µM"}
{"SMILES": "Cc1ccc(-n2nnnc2SCC(=O)Nc2ccc(-c3ccc(CC(=O)NS(C)(=O)=O)cc3)cc2Cl)c(Cl)c1", "agent": "HIV-1", "mutations": "RT-K103 Y181C", "target": "Reverse transcriptase", "read by": "PicoGreen / fluorescence", "endpoint": "IC50", "result": "<1 µM"}
{"SMILES": "CC1(C)c2nc(C(=O)NCc3ccc(F)cc3)c(O)c(=O)n2CCN1CC(=O)O", "agent": "HIV-1", "target": "Integrase", "read by": "ELISA", "endpoint": "IC50", "result": "<10 µM"}
{"SMILES": "CC(=O)N(CC(C)C)C1CN(C)CCn2c1nc(C(=O)NCc1ccc(F)cc1)c(O)c2=O", "agent": "HIV-1", "target": "Integrase", "read by": "ELISA", "endpoint": "IC50", "result": "<10 µM"}

a–b is a range or a potency band. Fold resistance: result on the changed form divided by that on wild type. Lines come from different laboratories, so protocols vary. An empty or dashed field is not shown.